From US20120269821A1

Target: COT6.15 envelope, wild type (HIV-1)
Test: cell-based or functional assay

mAb 4E10 (antibody) gave a Ratio (mutant IC50)/(wild-type IC50) of 1.
